Reference: paper PMC8270262 (Molecules, 2021)

Target: TBEV NS2B–NS3^pro (Tick-borne encephalitis virus, UniProt Q01299)
Assay: FRET-based inhibition assay of NS2B-NS3pro (384-well)

Molecule | IC50 (read-out: IC50, NS2B-NS3pro, 2.5 μM enzyme, 0.25 μM substrate, 25 °C, 3.5 h, β-ME omitted for DTNB) [µM] | Inhibition of NS2B-NS3pro (in words) (FRET assay, confirmed by SDS-PAGE analysis)
5,5-dithio-bis-(2-nitrobenzoic acid) | 303 | –
CC(=O)N[C@@H](CC(C)C)C(=O)N[C@@H](CC(C)C)C(=O)N[C@H](C=O)CCCNC(=N)N | – | no inhibition observed
